# In paper PMC3750474:
# Target: HIV-1 M-group (NL4-3) N-terminal capsid domain (HIV-1 M-group (NL4-3))
substance,measurement,value
human cyclophilin A (from UniProt P62937 1-165) (enzyme),"rate of cis-trans isomerization of the capsid G89-P90 bond catalysed by CypA (NMR ZZ-exchange; 430 μM CA^N, 35 μM CypA, 298 K)",4.3 s⁻¹
